The target of assay [1] is T1, wild-type C. difficile toxin B (TcdB wt, from List Bio) (C. difficile strain 630, UniProt P18177 2-2366). Description: dot blot, nondenaturing.
The target in assay [2] is Mutant TcdB (SEQ ID NO: 6) L44905-182, Formalin (C. difficile strain 630).
Assay [3] deals with Mutant TcdB (SEQ ID NO: 6) L44905-170B, Formalin (C. difficile strain 630).
Assay [4] has as its target Mutant TcdB (SEQ ID NO: 6) L34346-38A, EDC (C. difficile strain 630).
In assay [5] the target is T1, wild-type C. difficile toxin B (TcdB …). Description: cell-based or functional assay.
Assay [6] deals with L44905-86-11 Triple mutant toxin B (SEQ ID NO: 6), Rxn2, 25 C, day 5 (Clostridium difficile 630).
The target in assay [7] is L44905-86-10 Triple mutant toxin B (SEQ ID NO: 6), Rxn2, 10 C, day 5 (Clostridium difficile 630).
Assay [8] has as its target L44905-86-08 Triple mutant toxin B (SEQ ID NO: 6), Rxn1, 10 C, day 5 (Clostridium difficile 630).
For assay [9], the target named is L44905-86-07 Triple mutant toxin B (SEQ ID NO: 6), Rxn3, 25 C, day 1 (Clostridium difficile 630).
For assay [10], the target named is L44905-86-17 Triple mutant toxin B (SEQ ID NO: 6), Rxn2, 25 C, day 7 (Clostridium difficile 630).
In assay [11] the target is L44905-86-19 Triple mutant toxin B (SEQ ID NO: 6), Rxn3, 25 C, day 7 (Clostridium difficile 630).
Assay [12] has as its target L44905-86-18 Triple mutant toxin B (SEQ ID NO: 6), Rxn3, 10 C, day 7 (Clostridium difficile 630).
Assay [13] deals with L44905-86-13 Triple mutant toxin B (SEQ ID NO: 6), Rxn3, 25 C, day 5 (Clostridium difficile 630).
Assay [14] concerns the target L44905-86-15 Triple mutant toxin B (SEQ ID NO: 6), Rxn1, 25 C, day 7 (Clostridium difficile 630).
Assay [15] concerns the target Mutant toxin B sample L34346-30B (Clostridium difficile 630).
The target of assay [16] is L44905-86-14 Triple mutant toxin B (SEQ ID NO: 6), Rxn1, 10 C, day 7 (Clostridium difficile 630).
Assay [17] addresses L44905-86-05 Triple mutant toxin B (SEQ ID NO: 6), Rxn2, 25 C, day 1 (Clostridium difficile 630).
In assay [18] the target is L44905-86-09 Triple mutant toxin B (SEQ ID NO: 6), Rxn1, 25 C, day 5 (Clostridium difficile 630).
Assay [19] deals with L44905-86-06 Triple mutant toxin B (SEQ ID NO: 6), Rxn3, 10 C, day 1 (Clostridium difficile 630).
Assay [20] has as its target L44905-86-04 Triple mutant toxin B (SEQ ID NO: 6), Rxn2, 10 C, day 1 (Clostridium difficile 630).
In assay [21] the target is L44905-86-16 Triple mutant toxin B (SEQ ID NO: 6), Rxn2, 10 C, day 7 (Clostridium difficile 630).
The target of assay [22] is L44905-86-12 Triple mutant toxin B (SEQ ID NO: 6), Rxn3, 10 C, day 5 (Clostridium difficile 630).
Assay [23] addresses L44905-86-01 Triple mutant toxin B (SEQ ID NO: 6), Untreated Control (Clostridium difficile 630).
Assay [24] concerns the target L44905-86-03 Triple mutant toxin B (SEQ ID NO: 6), Rxn1, 25 C, day 1 (Clostridium difficile 630).
The target of assay [25] is L44905-86-02 Triple mutant toxin B (SEQ ID NO: 6), Rxn1, 10 C, day 1 (Clostridium difficile 630).

B1: A3-25 mAb (antibody, V domains shown)
VH: EVNLEESGGGLVQPGGSMKLSCVASGFTFTNYWMNWVRQSPEKGLEWIAEIRLKSHNYATHFAESVKGRFTISRDDSKSAVSLQMTNLTPEDTGIFYCTWDYYGNPAFVYWGQGTLVTVSA
VL: DVVMTHTPLSLPVSLGDQASMSCRSSQSLIHSNGNTYLHWYLQKPGQSPKLLISKVSNRFSGVPDRFSGSGSGTDFTLKISRVEAEDLGVYFCSQTTYFPYTFGGGTRLEIKR
Turning to B1, the binding result in assay [1] was “no binding”.

B2: B8-26 mAb (antibody, V domains shown)
VH: QVQLQQPGAELVKPGAPVKLSCKASGYSFTSYWMNWVKQRPGRGLEWIGRIDPSNSEIYYNQKFKDKATLTVDKSSSTAYIQLSSLTSEDSAVYYCASGHYGSIFAYWGQGTTLTVSS
VL: VQITQSPSYLAASPGETITINCRASKSISKYLAWYQEKPGKTNKLLLYSGSTLQSGIPSRFSGSRSGTDFTLIISSLEPEDSAMYYCQQHNEYPLTFGAGTKLELKR
Take B2: the binding result in assay [2], in assay [3] and in [4] was “binds” in each case. The “Neut titer, ATP” value in assay [5] worked out at 5000. In assay [5], the “Neut titer, CPE” value stood at 20500.

B3: B8-26 + B59-3 (mixture of two mAbs) (other)
VH 1: QVQLQQPGAELVKPGAPVKLSCKASGYSFTSYWMNWVKQRPGRGLEWIGRIDPSNSEIYYNQKFKDKATLTVDKSSSTAYIQLSSLTSEDSAVYYCASGHYGSIFAYWGQGTTLTVSS
VL 1: VQITQSPSYLAASPGETITINCRASKSISKYLAWYQEKPGKTNKLLLYSGSTLQSGIPSRFSGSRSGTDFTLIISSLEPEDSAMYYCQQHNEYPLTFGAGTKLELKRADAAPTVSIFPPSSEEFQ
VH 2: QVQLQQPGAELVKPGASVKLSCKASGYTFTSYWMHWVKQRPGQGLEWIGVINPSNGRSTYSEKFKTTATVTVDKSSSTAYMQLSILTSEDSAVYYCARAYYSTSYYAMDYWGQGTSVTVSS
VL 2: VLMTQSPLSLPVSLGDQASISCRSSQNIVHSNGNTYLEWYLQKPGQSPKLLIYKVSNRFSGVPDRFSGSGSGTYFTLKISRVEAEDLGVYYCFQGSHFPFTFGTGTKLEIKRADAAPTVSIFPPSSEEFQ
With B3, in assay [5], the “Neut titer, ATP” value was roughly 60000 and the “Neut titer, CPE” value came to 655000.

B4: B8-26 (antibody, V domains shown)
VH: QVQLQQPGAELVKPGAPVKLSCKASGYSFTSYWMNWVKQRPGRGLEWIGRIDPSNSEIYYNQKFKDKATLTVDKSSSTAYIQLSSLTSEDSAVYYCASGHYGSIFAYWGQGTTLTVSS
VL: VQITQSPSYLAASPGETITINCRASKSISKYLAWYQEKPGKTNKLLLYSGSTLQSGIPSRFSGSRSGTDFTLIISSLEPEDSAMYYCQQHNEYPLTFGAGTKLELKR
Regarding B4, the binding result in assay [6], in assay [7], in assay [8], in assay [9], in [10] and in [11] was “binds” throughout. Further, the binding result in assay [12], in [13], in [14], in assay [15], in assay [16] and in [17] was “binds” throughout. For the same molecule, the binding result in [18], in assay [19], in assay [20], in assay [21], in assay [22] and in assay [23] was “binds” throughout. For the same molecule, the binding result in [24] and in [25] was “binds” in each case.

B5: B59-3 mAb (antibody, V domains shown)
VH: QVQLQQPGAELVKPGASVKLSCKASGYTFTSYWMHWVKQRPGQGLEWIGVINPSNGRSTYSEKFKTTATVTVDKSSSTAYMQLSILTSEDSAVYYCARAYYSTSYYAMDYWGQGTSVTVSS
VL: VLMTQSPLSLPVSLGDQASISCRSSQNIVHSNGNTYLEWYLQKPGQSPKLLIYKVSNRFSGVPDRFSGSGSGTYFTLKISRVEAEDLGVYYCFQGSHFPFTFGTGTKLEIKR
B5: in assay [5], the “Neut titer, ATP” value was found to be 120 and the “Neut titer, CPE” value is 320.

Source of the values: patent US20210024903A1, “Compositions and methods relating to a mutant clostridium difficile toxin” (Pfizer, published 2021).
